The source made the active and inactive calls. The calls are words filed in the database; no cut-off is given here.
Key:
[1] = biological target: Opioid receptors; mu/kappa/delta (Homo sapiens) (UniProt P41145+P41143+P35372); settings: Brain, 10 nM
Mus musculus [2] = assay: Inhibition of morphine-induced analgesia in icv dosed mouse by tail-flick assay
Mus musculus [3] = assay: Analgesic activity in mouse at 4.8 nmol, icv measured after 60 mins by tail-flick assay
Mus musculus [4] = assay: Analgesic activity in mouse at 0.6 to 4.8 nmol, icv measured after 2 hrs by tail-flick assay
Mus musculus [5] = assay: Analgesic activity in mouse at 4.8 nmol, icv measured after 10 to 20 mins by tail-flick assay
Mus musculus [6] = assay: Inhibition of morphine-induced analgesia in mouse at 1.2 nmol, icv measured after 3 days by tail-flick assay
Mus musculus [7] = assay: Inhibition of morphine-induced analgesia in mouse at 1.2 nmol, icv measured after 6 days by tail-flick assay
Mus musculus [8] = assay: Inhibition of morphine-induced analgesia in mouse at 1.2 nmol, icv pretreated with 150 mg/kg naloxone as three divided doses for 30 mins by tail-flick assay
Mus musculus [9] = assay: Inhibition of morphine-induced analgesia in mouse assessed as increase in morphine ED50 at 0.6 nmol, icv by tail-flick assay relative to morphine-alone treated control
Mus musculus [10] = assay: Inhibition of morphine-induced analgesia in mouse assessed as increase in morphine ED50 at 2.4 nmol, icv by tail-flick assay relative to morphine-alone treated control
Mus musculus [11] = assay: Inhibition of morphine-induced analgesia in mouse assessed as increase in morphine ED50 at 1.2 nmol, icv by tail-flick assay relative to morphine-alone treated control
Mus musculus [12] = assay: Inhibition of morphine-induced analgesia in icv dosed mouse assessed as increase in morphine ED50 measured after 24 hrs by tail-flick assay relative to morphine-alone treated control

Amino acid sequences for entries named in this document (tags omitted). A change or cut given only in a name is not applied to a line headed by its entry.
UniProt P41145: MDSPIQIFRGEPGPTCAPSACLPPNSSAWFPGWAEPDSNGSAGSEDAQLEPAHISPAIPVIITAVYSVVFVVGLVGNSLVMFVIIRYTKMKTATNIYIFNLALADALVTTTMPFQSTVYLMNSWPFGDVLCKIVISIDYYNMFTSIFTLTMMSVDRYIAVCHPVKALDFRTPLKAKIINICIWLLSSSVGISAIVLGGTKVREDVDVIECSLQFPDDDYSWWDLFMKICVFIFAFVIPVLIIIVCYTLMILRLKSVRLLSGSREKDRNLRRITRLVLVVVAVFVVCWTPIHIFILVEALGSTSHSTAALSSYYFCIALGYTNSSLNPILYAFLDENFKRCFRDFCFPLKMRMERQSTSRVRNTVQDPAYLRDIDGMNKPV
UniProt P41143, whole entry, looked up: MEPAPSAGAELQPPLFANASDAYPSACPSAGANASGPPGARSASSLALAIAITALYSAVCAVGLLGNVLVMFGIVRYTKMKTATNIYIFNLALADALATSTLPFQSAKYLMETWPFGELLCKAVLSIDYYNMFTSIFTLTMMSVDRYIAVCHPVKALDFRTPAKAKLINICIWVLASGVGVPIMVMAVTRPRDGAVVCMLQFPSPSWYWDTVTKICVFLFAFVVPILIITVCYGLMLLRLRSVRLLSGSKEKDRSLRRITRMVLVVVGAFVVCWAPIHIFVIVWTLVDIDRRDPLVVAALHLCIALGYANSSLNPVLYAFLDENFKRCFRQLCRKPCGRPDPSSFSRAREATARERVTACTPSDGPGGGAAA
UniProt P35372, whole entry, looked up: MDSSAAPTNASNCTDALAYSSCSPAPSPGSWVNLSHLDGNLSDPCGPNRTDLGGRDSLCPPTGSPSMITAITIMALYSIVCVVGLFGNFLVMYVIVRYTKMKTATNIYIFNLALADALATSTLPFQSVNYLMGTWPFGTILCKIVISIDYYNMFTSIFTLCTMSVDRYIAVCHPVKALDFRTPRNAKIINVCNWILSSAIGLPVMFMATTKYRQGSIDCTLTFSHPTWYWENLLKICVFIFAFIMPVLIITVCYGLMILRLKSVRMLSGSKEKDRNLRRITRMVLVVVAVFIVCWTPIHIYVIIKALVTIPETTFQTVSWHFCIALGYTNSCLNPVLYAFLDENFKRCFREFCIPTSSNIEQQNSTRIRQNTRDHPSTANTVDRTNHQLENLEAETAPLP

Q: For `Cl.Oc1ccc2c3c1O[C@H]1[C@H](N(CCCl)CCCl)CC[C@@]4(O)[C@@H](C2)N(CC2CC2)CC[C@]314`, which inhibition [1] is on record?
A: Active

Q: What about the inhibition (Mus musculus [2]) of the same compound?
A: Dose-dependent effect

Q: And the Activity (Mus musculus [3])?
A: inactive

Q: What about the Activity (Mus musculus [4]) of the same compound?
A: inactive

Q: And the Activity (Mus musculus [5])?
A: 18%

Q: What about the inhibition (Mus musculus [6]) of the same compound?
A: Active

Q: What about the inhibition (Mus musculus [7]) of the same compound?
A: inactive

Q: What about the inhibition (Mus musculus [8]) of the same compound?
A: inactive

Q: What about the fold change (FC) (Mus musculus [9]) of the same compound?
A: 7

Q: What about the fold change (FC) (Mus musculus [10]) of the same compound?
A: 179

Q: And the fold change (FC) (Mus musculus [11])?
A: 66

Q: What about the fold change (FC) (Mus musculus [12]) of the same compound?
A: 3

— ChEMBL document CHEMBL3244199, “6beta-[N,N-Bis(2-chloroethyl)amino]-17-(cyclopropylmethyl)-4,5alpha-epoxy-3,14-dihydroxymorphinan(chlornaltrexamine) a potent opioid receptor alkylating agent with ultralong narcotic antagonist actitivty” (J Med Chem, 1978)
